Reference: PubChem BioAssay AID710 (SRMLSC, 2007)
Only a part is listed here, and it is no random draw. Active and inactive are the calls of the source.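 How the source made its calls: active means growth inhibition above about 50% at one test dose (limit read from the data); inactive means the rest.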

Assay: growth inhibitors of wild-type E. coli, primary screen, strain BW25113, expanded library, OD600 (AID 710);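 further: growth measured after 20 h incubation at 37 °C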
Conditions: OD600 absorbance, at 100 µM, active compounds read high

Structure (SMILES)	growth inhibition
COc1ccccc1OP(C)(=O)Nc1ccc(C)c(C)c1 (configuration not stated)	inactive: -5%
Cc1nc2ccc3ccccc3c2o1.O=[N+]([O-])c1cc([N+](=O)[O-])c(O)c([N+](=O)[O-])c1	inactive: 8%
CN(C)CCOC(=O)C(O)(c1ccccc1)C1CCCC1 (configuration not stated)	inactive: -2%
COc1ccc(OP(C)(=O)Nc2ccccn2)cc1 (configuration not stated)	inactive: 1%
CCc1ccc(OP(C)(=O)O)cc1	inactive: -3%
CP(=O)(Nc1ccccn1)Oc1ccccc1 (configuration not stated)	inactive: 6%
COc1ccccc1OP(C)(=O)Nc1ccc(C)cc1C (configuration not stated)	inactive: -3%
Cc1c(NP(C)(=O)Oc2ccc(C(C)C)cc2)c(=O)n(-c2ccccc2)n1C (configuration not stated)	inactive: 2%
CP(=O)(Oc1ccccc1)N1CCOC1=O (configuration not stated)	inactive: 5%
CCN(CC)CC(O)COC(=O)C(O)(c1ccccc1)C1CCCCC1 (configuration not stated)	inactive: 7%
CP(=O)(Nc1ccc(Cl)cc1)Oc1ccc(F)cc1 (configuration not stated)	inactive: 16%
CC(C)(C)c1ccc(OP(C)(=O)O)cc1	inactive: 2%
CP(=O)(OC12CC3CC(CC(C3)C1)C2)OC12CC3CC(CC(C3)C1)C2	inactive: -11%
CN(C)CCOC(=O)C(O)(c1ccccc1)C1CCCCC1 (configuration not stated)	inactive: 4%
COc1ccc(OP(C)(=O)Nc2cccc(Br)c2)cc1 (configuration not stated)	inactive: 2%
CCOP(C)(=S)SCC(=O)NC(C)(CC)C(=O)O (configuration not stated)	inactive: -6%

Structure (SMILES)	growth inhibition
Cc1ccccc1NP(C)(=O)Nc1ccccc1C	inactive: 9%
CP(=O)(Nc1ccc2c(c1)OCCO2)Oc1ccccc1 (configuration not stated)	inactive: 5%
CP(=O)(Nc1ccccc1F)Oc1ccccc1 (configuration not stated)	inactive: 2%
CP(=O)(Nc1ccccc1)Oc1ccc(F)cc1 (configuration not stated)	inactive: 2%
Cc1cc(C)cc(OP(C)(=O)Nc2ccc(C)cc2C)c1 (configuration not stated)	inactive: 4%
Cc1cc(C)cc(OP(C)(=O)Nc2ccccn2)c1 (configuration not stated)	inactive: -3%
Cc1ccc(C)c(NP(C)(=O)Oc2ccccc2)c1 (configuration not stated)	inactive: 7%
Cc1nc2ccc3ccccc3c2s1.O=[N+]([O-])c1cc([N+](=O)[O-])c(O)c([N+](=O)[O-])c1	inactive: 10%
COc1ccccc1OP(C)(=O)Nc1c(C)cccc1C (configuration not stated)	inactive: 3%
CP(=S)(Nn1cnnc1)Oc1ccccc1 (configuration not stated)	inactive: 3%
CP(=O)(NC(=O)Nc1ccccc1)Oc1ccccc1 (configuration not stated)	inactive: 1%
CP(=O)(Nc1ccccn1)Oc1ccc(Cl)cc1 (configuration not stated)	inactive: 3%
CCOP(C)(=S)SCC(=O)NC(C)C(=O)O (configuration not stated)	inactive: -2%
COc1ccc(OP(C)(=O)Nc2cccc(F)c2)cc1 (configuration not stated)	inactive: 3%
COc1ccccc1OP(C)(=O)Nc1ccc(C)cc1 (configuration not stated)	inactive: 1%
Cc1ccc(NP(C)(=O)Oc2ccccc2)c(C)c1 (configuration not stated)	inactive: 1%
